System: Ebola virus
Assay type: cell-based, Ebolavirus (EBOV)

Substance	IC50 [nM]	Max Effect
Gramicidin	1700	–
Sodium Vanadate	–	0.525
